The IC50 is the concentration that gives 50% inhibition.

For one substance, IC50 results are on record in article PMC8864717 (Chemical Science, 2021).

The target in the test is SARS-CoV-2 Hel (Severe acute respiratory syndrome coronavirus 2, UniProt P0DTD1). The conditions noted are these: read-out: IC50, SARS-CoV-2 Hel duplex (dsDNA) unwinding activity.

For colloidal bismuth subcitrate [CBS], the IC50 was found to be 1.24 µM.
